A short description of the data set: Sensory properties of lipid/alkanediol blends assessed by untrained panellists. In kind it is in vivo. The note with it: scale 1 to 5; for Spreading, w: after 30 s.
The mark [1] stands for this setting: Argan Oil blended with alkanediol 85:15.
[2] abbreviates: Avocado Oil blended with alkanediol 85:15.
The mark [3] stands for this setting: Grapeseed Oil blended with alkanediol 85:15.
Where [4] appears, read: Helianthus Annuus (Sunflower) Seed Oil blended with alkanediol 85:15.
The mark [5] stands for this setting: Octocrylene (Neo Heliopan 303) blended with alkanediol 85:15.
Setting [6] is: Octocrylene blended with alkanediol 85:15.
Setting [7] is: Olive Oil blended with alkanediol 85:15.
Where [8] appears, read: CCT (neutral oil) blended with alkanediol 85:15.
Setting [9] is: Cacao butter blended with alkanediol 85:15.

Structures are written as SMILES. The amount applied is not stated for every result.

With `CCCCCCC(O)CO` (stereo not drawn) [1,2-C8, 1,2-octanediol], the “Absorption, w” value stood at 2.6 under setting [1]; 2.6 under setting [2]; 1.6 under setting [3]; 2 under setting [4]; 3.5 under setting [6]; 2.6 under setting [7]. Moreover, the “Spreading, w” value reads like this: under setting [1], 3.8; under setting [2], 4; under setting [3], 4; under setting [4], 4.2; under setting [5], 3.5; under setting [7], 4.2.

As for `CCCCC(O)C(C)O` (stereo not drawn) [2,3-C7, 2,3-heptanediol], the “Absorption, w” value was 3 under setting [8]; 3.2 under setting [9]; 2.2 under setting [3]; 3.5 under setting [6]; 2 under setting [7]. In addition, the “Spreading, w” value under setting [8] is on record as 3.6; the “Spreading, w” value under setting [9] is 3; the “Spreading, w” value under setting [3] is 3.6; the “Spreading, w” value under setting [5] is 3.5; the “Spreading, w” value under setting [7] amounted to 4.

Take `CCCCC(O)CO` (stereo not drawn) [1,2-C6, 1,2-hexanediol]: under setting [8], the “Absorption, w” value came out at 2.8 and the “Spreading, w” value turned out to be 3.6.

Turning to `CCCC(O)C(C)O` (stereo not drawn) [2,3-C6, 2,3-hexanediol], under setting [8], the “Absorption, w” value worked out at 2.8 and the “Spreading, w” value is 3.2.

With `CCCCCC(O)CO` (stereo not drawn) [1,2-C7, 1,2-heptanediol], the “Absorption, w” value was found to be 2.7 under setting [8]; 3.6 under setting [9]; 2.8 under setting [3]; 3.5 under setting [6]; 2.4 under setting [7]. Further, the “Spreading, w” value by setting is: under setting [8], 3.4; under setting [9], 3.8; under setting [3], 3.8; under setting [5], 3.5; under setting [7], 4.

With `CCCCCC(O)C(C)O` (stereo not drawn) [2,3-C8, 2,3-octanediol], the “Absorption, w” value reads like this: under setting [1], 2.2; under setting [2], 2.4; under setting [3], 2.4; under setting [4], 3.4; under setting [6], 2.5; under setting [7], 2.6. For the same compound, the “Spreading, w” value under setting [1] is reported as 3.4; the “Spreading, w” value under setting [2] was determined as 3.2; the “Spreading, w” value under setting [3] came out at 2.8; the “Spreading, w” value under setting [4] is on record as 3.4; the “Spreading, w” value under setting [5] is 3.5; the “Spreading, w” value under setting [7] is on record as 3.2.

For the origin of these results see patent publication US20230295066A1, “Process for the Efficient Preparation of (Bio)-Alkanediols” (Symrise AG, priority 2020, published 2023).
